A mixed list of measured activities; the numbers were collected in NIAID ChemDB.

Common to all: growth or infection tests; species: Candida albicans; read-out: MIC

Two numbers with a dash give a range or band. An empty or dashed field is not shown. Conditions beyond the fields shown may differ between rows.

structure	strain	read by	result
O=C(CN1CCN(C(c2ccccc2)c2ccc(Cl)cc2)CC1)Cn1cncn1	ATCC 76615	broth dilution	100 µg/mL
COc1ccc2nc(Oc3ccc(Cl)cc3)c(C3C(C#N)=C(N)Oc4c3c(=O)oc3ccccc43)cc2c1	MTCC 227	-	1000 µg/mL
Cc1ccccc1.Cc1ccccc1.NP1(Nc2ccccc2)=NP2(=NP(Cl)(Cl)=N1)NCCCN2CCCCN1CCCNP12=NP(Cl)(Cl)=NP(N)(Nc1ccccc1)=N2	ATCC 102031	broth dilution	2–1024 µg/mL
C[C@@H]1CCC2(OC1)O[C@H]1C[C@H]3[C@@H]4CC=C5C[C@@H](C6O[C@H](CO)[C@@H](O[C@@H]7O[C@@H](C)[C@H](O[C@H]8O[C@@H](C)[C@H](O)[C@@H](O)[C@H]8O)[C@@H](O)[C@H]7O)[C@H](O)[C@H]6O[C@@H]6O[C@@H](C)[C@H](O)[C@@H](O)[C@H]6O)CC[C@]5(C)[C@H]4CC[C@]3(C)[C@H]1[C@@H]2C	-	-	100 µg/mL
CC1=C(N2CCC(N)(CF)C2)C(F)=CN2C(=O)C(C(=O)O)=CC(C3CC3)C12	CCH442	-	>100 µg/mL
O=c1c2ccccc2[se]n1CCO	-	agar	242 µg/mL
Cc1c(N2CC3CCC(C)(N)C3C2)c(F)cn2c(=O)c(C(=O)O)cc(C3CC3)c12.Cl	CCH442	-	>100 µg/mL
Cc1c(N2CCc3c(N)cccc3C2)c(F)cn2c(=O)c(C(=O)O)cc(C3CC3)c12.Cl	CCH442	-	>100 µg/mL
Cc1ccc2nc(Oc3ccccc3)c(C3C(C#N)=C(N)Oc4c3c(=O)oc3ccccc43)cc2c1	MTCC 227	-	500 µg/mL
C[C@@H]1[C@H](O)[C@@H](C)/C=C/C=C/CC/C=C/C=C/C=C/C=C/C(O[C@H]2O[C@H](C)[C@@H](O)[C@H](N)[C@@H]2O)CC2O[C@](O)(CC(O)C(O)CCC(O)CC(O)CC(O)CC(=O)O[C@H]1C)CC(O)C2C(=O)O	ATCC 10231	broth dilution	0.25 µg/mL
Nn1c(Nc2ccccc2)nc2sc3c(c2c1=O)CCC3	-	-	12.5 µg/mL
CCOC(=O)c1cn(CC)c2ccc(Cl)cc2c1=O	ATCC 10231	-	>40 µg/mL
Cc1c(N2CCC[C@@H](O)C2)c(F)cn2c(=O)c(C(=O)O)cc(C3CC3)c12	CCH442	-	>100 µg/mL
CN[C@@H]1[C@H](O)[C@@H](O)[C@H](O[C@H]2c3cc(C)c(C(=O)N[C@H](C)C(=O)O)c(O)c3-c3c(cc4c(c3O)C(=O)c3cc(OC)cc(O)c3C4=O)[C@@H]2O)O[C@@H]1C	A9540	-	3.1 µg/mL
Cc1ccc(Oc2nc3ccccc3cc2C2C(C#N)=C(N)Oc3c2c(=O)oc2ccccc32)cc1	MTCC 227	-	500 µg/mL
Cc1ccc2c(Br)cc(Br)c(O)c2n1	-	-	10 µg/mL
COc1c(-c2ccccc2)oc2cc3c(c(OC)c2c1=O)OCO3	-	-	500 µg/mL
CC(C)=CCOc1ccc2c(c1C)C(=O)c1ccccc1C2=O	Standard strain	broth dilution	31.25 µg/mL
CCCCn1[se]c2ccccc2c1=O	-	agar	1 µg/mL
c1ccc(NP2(Nc3ccccc3)=NP34=NP5(=N2)NCCCN5CCCCN3CCCN4)cc1	ATCC 102031	broth dilution	2–1024 µg/mL
CCC(C)n1ncn(-c2ccc(N3CCN(c4ccc(OC[C@H]5CO[C@](Cn6cncn6)(c6ccc(Cl)cc6Cl)O5)cc4)CC3)cc2)c1=O	ATCC 60027	broth dilution	>150 µg/mL
O=C(Cn1cnc2ccccc21)N1CCN(C(c2ccccc2)c2ccc(Cl)cc2)CC1	ATCC 76615	broth dilution	25 µg/mL
Cc1ccc(Oc2nc3ccc(C)cc3cc2C2C(C#N)=C(N)Oc3c2c(=O)oc2ccccc32)cc1	MTCC 227	-	500 µg/mL
C[C@H]1O[C@@H](Oc2ccc(-c3coc4cc(O[C@@H]5O[C@H](C)[C@H](O)[C@H](O)[C@@H]5O)ccc4c3=O)cc2)[C@@H](O)[C@@H](O)[C@H]1O	B02630	-	7 µg/mL
Cc1c(N2CC[C@@H](CO)C2)c(F)cn2c(=O)c(C(=O)O)cc(C3CC3)c12	CCH442	-	6.2 µg/mL
COc1cc(O)c2c(c1)C(=O)c1c(cc3c(c1O)-c1c(cc(C)c(C(=O)N[C@H](C)C(=O)O)c1O)[C@H](O[C@@H]1O[C@H](C)[C@H](N)[C@H](O[C@@H]4OC[C@@H](O)[C@H](O)[C@@H]4O)[C@H]1O)[C@H]3O)C2=O	83-2-14	-	3.1 µg/mL
Cc1c(N2CC[C@@H](C3CC3N)C2)c(F)cn2c(=O)c(C(=O)O)cc(C3CC3)c12	CCH442	-	>100 µg/mL
[Cl][Cu][Cl].c1ccc(CN(Cc2ccccn2)Cc2c3ccccc3cc3ccccc23)nc1	ATCC 10213	broth dilution	>1000 µg/mL
C/C=C(\C)C(=O)Nc1c2sscc-2n(C)c1=O	IPA200	-	20 µg/mL
O=[N+]([O-])c1cn(CC(O)CN2CCN(C(c3ccccc3)c3ccc(Cl)cc3)CC2)cn1	ATCC 76615	broth dilution	25 µg/mL
O=C1C(=O)c2ccccc2-c2ccccc21	KACC 30003	visual reading	60 µg/mL
COc1ccc2nc(Oc3ccccc3)c(C3C(C#N)=C(N)Oc4c3c(=O)oc3ccc(C)cc43)cc2c1	MTCC 227	-	100 µg/mL
CC1=C(N2CCC3CNCC32)C(F)=CN2C(=O)C(C(=O)O)=CC(C3CC3)C12	CCH442	-	>100 µg/mL
C=C(C)CN1CC(OCC23C[C@@H]4[C@H](C)CC[C@H]4C4(C=O)CC2C=C(C(C)C)[C@@]34C(O)O)O[C@H](C)[C@@H](O)C1	ATCC 24433	-	0.016 µg/mL
Cc1c(N2CCCC(CO)C2)c(F)cn2c(=O)c(C(=O)O)cc(C3CC3)c12	CCH442	-	>100 µg/mL
CCn1[se]c2ccccc2c1=O	-	agar	2 µg/mL
CO[C@@H]1CC[C@H](O)c2c1oc1c3c4c(c(O)c1c2=O)-c1c(cc2cc(C)n(N)c(=O)c2c1O)C[C@H]4OCO3	6 strains	-	~55 µg/mL
OC1NP2(=NP34=NP5(=N2)NCCCN5CCCCN3CCCN4)NC(O)C(F)(F)C1(F)F	ATCC 102031	broth dilution	2–1024 µg/mL
CCCn1[se]c2ccccc2c1=O	-	agar	2 µg/mL
Cc1ccc(Oc2nc3ccc(C)cc3cc2C2C(C#N)=C(N)Oc3c2c(=O)oc2ccc(C)cc32)cc1	MTCC 227	-	500 µg/mL
O=C(CN1CCN(C(c2ccccc2)c2ccc(Cl)cc2)CC1)Cn1ccnc1	ATCC 76615	broth dilution	6.2 µg/mL
COC1[C@@H](O)[C@@H](O)C(O)[C@H](O)[C@H]1O	-	-	75 µg/mL
OC1CCC(O)P12=NP1(=NP(Cl)(Cl)=N2)NCCCN1CCCCN1CCCNP12=NP(Cl)(Cl)=NP1(=N2)C(O)CCC1O	ATCC 102031	broth dilution	2–1024 µg/mL
CCOC(=O)c1cn(CC)c2c(C)cccc2c1=O	ATCC 10231	-	>100 µg/mL
C[C@H](CCC(=O)NCCS(=O)(=O)O)[C@H]1CC[C@H]2[C@@H]3CC[C@@H]4C[C@H](OS(=O)(=O)O)CC[C@]4(C)C3CC[C@]12C	-	-	>500 µg/mL
O=c1c2ccccc2[se]n1C1CCCCC1	-	broth dilution	2 µg/mL
CCc1c(N2CCC(N)C2)c(F)cn2c(=O)c(C(=O)O)cc(C3CC3)c12.Cl	CCH442	-	>100 µg/mL
CCCCCCN(CCCCCC)c1cc(N(CCCCCC)CCCCCC)c2ccc(C)nc2c1O	-	-	7.1 µg/mL
COc1cc2oc(-c3ccccc3)c(OC)c(=O)c2c(OC)c1OC	-	-	500 µg/mL
C[C@@H]1CCC2(OC1)O[C@H]1C[C@H]3[C@@H]4CC=C5C[C@@H](C6O[C@H](CO)[C@@H](O[C@@H]7O[C@@H](C)[C@H](O)[C@@H](O)[C@H]7O)[C@H](O)[C@H]6O[C@@H]6O[C@@H](C)[C@H](O)[C@@H](O)[C@H]6O)CC[C@]5(C)[C@H]4CC[C@]3(C)[C@H]1[C@@H]2C	-	-	12.5 µg/mL
C[C@@H]1[C@H](O)[C@@H](C)/C=C/C=C/CC/C=C/C=C/C=C/C=C/C(O[C@H]2O[C@H](C)[C@@H](O)[C@H](N)[C@@H]2O)CC2O[C@](O)(CC(O)C(O)CCC(O)CC(O)CC(O)CC(=O)O[C@H]1C)CC(O)C2C(=O)O	-	-	12 µM
O=C(Nc1ccccc1)n1[se]c2ccccc2c1=O	-	agar	79 µg/mL
O=c1cc(-c2ccccc2)oc2cc(O)c(O)c(O)c12	ATCC64550	-	26 µg/mL
Cc1c(N2CCC(N(C)C)CC2)c(F)cn2c(=O)c(C(=O)O)cc(C3CC3)c12	CCH442	-	>100 µg/mL
CCC(C)n1ncn(-c2ccc(N3CCN(c4ccc(OC[C@H]5CO[C@](Cn6cncn6)(c6ccc(Cl)cc6Cl)O5)cc4)CC3)cc2)c1=O	A28970	-	1 µg/mL
Cc1c(N2CCC(N3CCCCC3)CC2)c(F)cn2c(=O)c(C(=O)O)cc(C3CC3)c12.O=C(O)C(F)(F)F	CCH442	-	>100 µg/mL
C=CC(O)C#CC#CC(O)/C=C\C(O)CCCCCC	105	-	200–400 µg/mL
O=C(CN1CCN(C(c2ccccc2)c2ccc(Cl)cc2)CC1)Cn1ccnc1-c1ccccc1	ATCC 76615	broth dilution	12.5 µg/mL